Experimental data as given in US11485758B2, “Bi-terminal pegylated integrin-binding peptides and methods of use thereof” (The Regents of the University of California, priority 2014, dated 2022).
“And” between values parts separate entries of the source, which are not always exact repeats. Identical values can stand only once. Like-named read-outs stand apart in the source and are kept apart here.

Key:
[1] = test system: BxPC-3 tumors (endogenous αvβ6-expression)
Procedure: (PBS) or 37° C. (serum), followed by analysis on radio HPLC. Data are expressed as % probe remaining intact in sample. […] Tumor models—DX3puroβ6/DX3puro: Human melanoma cell line. DX3puroβ6 has been stably transfected to express integrin αvβ6. DX3puro is negative control cell line. […] BxPC-3: Pancreatic cell line with endogenous αvβ6-expression. MIA PaCa-2: Pancreatic cell line, no αvβ6-expression.

[2] = test system: integrin αvβ6-expressing DX3puroβ6 tumors

Row | Substance | BxPC-3 (POS) tumor uptake ([1]; 1 h p.i.) | BxPC-3 (POS) tumor uptake ([1]; 4 h p.i.) | DX3puroβ6 (POS) tumor uptake ([2]; 1 h p.i.) [% ID/g] | DX3puroβ6 (POS) tumor uptake ([2]; 4 h p.i.) [% ID/g] | DX3puroβ6 (POS) tumor uptake ([2]; 2 h p.i.) [% ID/g]
1 | 18F-FBA-PEG28-A20FMDV2 [compound 2] | 1.9 % ID/g | 1.5 % ID/g | 0.49 | 0.49 | –
2 | PEG28-A20FMDV2(K16R)-PEG28 | – | – | 2.51 | – | –
3 | 18F-FBA-PEG28-PEG28-A20FMDV2 [compound 3] | 1.6 % ID/g | 2.1 % ID/g | 0.52 | 0.54 | –
4 | [^18F]FBA-PEG28-A20FMDV2 K16R-PEG28 [compound 5R] | – | – | – | 2.64 | –
5 | 18F-FBA-A20FMDV2-PEG28 [compound 4] | – | – | 1.3 | 0.3 | 1.0
6 | 18F-FBA-PEG28-A20FMDV2-PEG28 [compound 5] | 4.7 % ID/g and 4.71±0.88 % ID/g | 3.4 % ID/g and 3.39±1.34 % ID/g | 2.3 | 1.4 | –
